Results published in patent US6903108B2, “Fungicidal mixtures based on amide compounds and pyridine derivatives” (BASF Aktiengesellschaft, priority 1997, dated 2005).

Assays:
Botrytis cinerea [1] = assay: Activity against Botrytis cinerea on bell peppers, green fruit disks (Use Example 2); format: in vivo; conditions: 31 ppm active ingredient in the spray liquor; green bell pepper fruit disks, 4 days at 18° C.
Botrytis cinerea [2] = assay: Activity against Botrytis cinerea on bell pepper leaves (Use Example 1); format: in vivo; conditions: bell pepper seedlings, protective spray, evaluated after 5 days

Measured: Efficacy in % of the untreated control

captan
0%: Botrytis cinerea [1] | Botrytis cinerea [2]; 8 ppm active ingredient in the spray liquor | Botrytis cinerea [2]; 16 ppm active ingredient in the spray liquor | Botrytis cinerea [2]; 31 ppm active ingredient in the spray liquor
